Results as given in PMC11509758, “New Fusarochromanone Derivatives from the Marine Fungus Fusarium equiseti UBOCC-A-117302” (Marine Drugs, 2024).

Columns and labels:
Conditions in all cases: fixed concentration 25 µM, 48 h, primary assessment
HCT-116 cells = test system: HCT-116 cells
hTERT RPE-1 cells = test system: hTERT RPE-1 cells
U-2 OS cells = experiment: Cell viability, MTS reduction assay, U2OS

C[C@H](O)c1nc(=O)c2ccccc2[nH]1 [Compound 7, (−)-chrysogine]
no cytotoxicity: cytotoxicity at 25 µM, HCT-116 (HCT-116 cells) | cytotoxicity at 25 µM, RPE-1 (hTERT RPE-1 cells) | cytotoxicity at 25 µM, U2OS (U-2 OS cells)

C/C=C/[C@@H]1C=C[C@@H]2C[C@H](C)CC[C@H]2[C@]1(C)/C(O)=C1\C(=O)[C@H](CO)N(C)C1=O [Compound 8, equisetin]
no cytotoxicity: cytotoxicity at 25 µM, HCT-116 (HCT-116 cells) | cytotoxicity at 25 µM, RPE-1 (hTERT RPE-1 cells) | cytotoxicity at 25 µM, U2OS (U-2 OS cells)
